Results of unrelated studies side by side (data: NIAID ChemDB).

Common to all: tests in culture; organism: Mycobacterium bovis

Lines come from different laboratories, so protocols vary. An empty or dashed field is not shown. ECn: concentration that inhibits the pathogen or its effect by n%.

{"SMILES": "CC1=CCC2C(C1)C2(C)C", "read-out": "MIC", "strain or isolate": "AN5", "read by": "resazurin", "value": "7.29 µg/mL"}
{"SMILES": "c1ccc2[nH]cnc2c1", "read-out": "EC50", "value": ">100 µM"}
{"SMILES": "O=C(O)c1ccc(N=Cc2ccccc2O)cc1O", "read-out": "EC75", "strain or isolate": "BCG", "value": "31 µM"}
{"SMILES": "CCC1(c2ccccc2)NC(=O)NC1=O", "read-out": "EC50", "value": ">100 µM"}
{"SMILES": "COc1ccnc2[nH]cc(C(=O)C(=O)N3CCN(C(=O)c4ccccc4)C[C@H]3C)c12", "read-out": "EC50", "strain or isolate": "BCG", "setting": "pseudotyped", "value": "0.001 µM"}
{"SMILES": "O=[N+]([O-])c1cn2c(n1)OC[C@@H](OCc1ccc(OC(F)(F)F)cc1)C2", "read-out": "MBC", "strain or isolate": "rBCG-lux", "value": "2 µg/mL"}
{"SMILES": "CCC1CN(c2c(F)cc3c(=O)c(C(=O)O)cn(C4CC4)c3c2OC)CCN1", "read-out": "MIC", "strain or isolate": "BCG-KD1295 (WILD TYPE)", "value": "0.048 µg/mL"}
{"SMILES": "Clc1ccc(COC(Cn2ccnc2)c2ccc(Cl)cc2Cl)cc1", "read-out": "EC50", "value": "≤1 µM"}
{"SMILES": "CO[C@H]1/C=C/O[C@@]2(C)Oc3c(C)c(O)c4c(O)c(c(/C=N/N5CCN(C)CC5)c(O)c4c3C2=O)NC(=O)/C(C)=C\\C=C\\[C@H](C)[C@H](O)[C@@H](C)[C@@H](O)[C@@H](C)[C@H](OC(C)=O)[C@@H]1C", "read-out": "MIC", "strain or isolate": "SB1176", "read by": "resazurin", "value": "0.09 µg/mL"}
{"SMILES": "C=CC(C)(/C=C/c1ccc(O)cc1)CCC=C(C)C", "read-out": "MIC", "strain or isolate": "BCG", "value": "21.4 µg/mL"}
{"SMILES": "NNC(=O)c1ccncc1", "read-out": "MIC", "strain or isolate": "BCG", "read by": "fluorescence", "value": "0.31 µM"}
{"SMILES": "Clc1ccc(C2(Cn3cncn3)OCCO2)c(Cl)c1", "read-out": "EC50", "value": ">1 µM"}
{"SMILES": "COC[C@H]1OC(=O)c2coc3c2[C@@]1(C)C1=C(C3=O)C2CCC(=O)[C@@]2(C)C[C@H]1OC(C)=O", "read-out": "EC50", "strain or isolate": "BCG", "value": ">0.5 µM"}
{"SMILES": "Cc1nc2c([nH]1)c(=O)n(C)c(=O)n2Cc1ccco1", "read-out": "EC50", "value": ">100 µM"}
{"SMILES": "Oc1cccc2cccnc12", "read-out": "MIC", "strain or isolate": "BCG", "value": "2 µM"}
{"SMILES": "CCC1CN(c2cc3c(cc2F)c(=O)c(C(=O)O)cn3C2CC2)CCN1", "read-out": "MIC", "strain or isolate": "BCG-CX2 (A90V D94N)", "value": "14 µg/mL"}
{"SMILES": "CCC(C)n1ncn(-c2ccc(N3CCN(c4ccc(OC[C@H]5CO[C@](Cn6cncn6)(c6ccc(Cl)cc6Cl)O5)cc4)CC3)cc2)c1=O", "read-out": "EC50", "value": ">100 µM"}
{"SMILES": "C[C@]1(COc2ccc(N3CCC(Oc4ccc(OC(F)(F)F)cc4)CC3)cc2)Cn2cc([N+](=O)[O-])nc2O1", "read-out": "MIC", "strain or isolate": "BCG", "value": "0.012 µg/mL"}
{"SMILES": "Cn1c2c3ccccc3nc-2cc2ccccc21", "read-out": "MIC", "strain or isolate": "BCG", "value": "12.5 µg/mL"}
{"SMILES": "CC1CN(c2c(F)cc3c(=O)c(C(=O)O)cn(C4CC4)c3c2Br)CCN1", "read-out": "MIC", "strain or isolate": "BCG-KD1295 (WILD TYPE)", "value": "0.058 µg/mL"}
{"SMILES": "C=CC1=C(C)C2=Cc3c(C=C)c(C)c4[n]3[Ga][n]3c(c(C)c(CCC(=O)O)c3=CC3=NC(=C4)C(C)=C3CCC(=O)O)=CC1=N2", "read-out": "MIC", "strain or isolate": "BCG", "value": "0.4 µg/mL"}
{"SMILES": "O=C(NCc1ccc(N2CCN(Cc3ccccc3)CC2)nc1)c1ccc([N+](=O)[O-])o1", "read-out": "MIC", "strain or isolate": "BCG", "value": "0.0015 µg/mL"}

A second listing of 2 rows from above:

SMILES | read-out | strain or isolate | read by | setting | value
C=CC1=C(C)C2=Cc3c(C=C)c(C)c4[n]3[Ga][n]3c(c(C)c(CCC(=O)O)c3=CC3=NC(=C4)C(C)=C3CCC(=O)O)=CC1=N2 | MIC | BCG | - | - | 0.4 µg/mL
COC[C@H]1OC(=O)c2coc3c2[C@@]1(C)C1=C(C3=O)C2CCC(=O)[C@@]2(C)C[C@H]1OC(C)=O | EC50 | BCG | - | - | >0.5 µM